Values from PubChem BioAssay AID624099 (ICCB-Longwood, 2012).
The whole screen tested about 21,000 reagents; shown is a random part of them. 497 of them (2.4%) count as active. 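Higher z means weaker E2 silencing; only reporter increases were scored, and knock-downs that hurt cell survival may mask genuine repressor factors.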 The numbers tell different reagents against one gene apart.

- Screen: 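Host factors E2 relies on to silence an HPV18 LCR reporter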 (primary screen)
- System: human C33A cervical carcinoma cells (HPV-negative) stably expressing BPV1 E2 and an HPV18 LCR luciferase reporter
- Reagents: siRNA pool against human genes, 40 nM
- Time to read-out: 72 h
- Read-out: 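HPV18 LCR reporter light per well, converted to plate-wise z-scores that exclude control wells, and averaged over triplicate plates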
- Direction: mean z-score and z-score: higher = stronger reporter signal, weaker E2 silencing
- Hit rule: 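Hit if mean z-score reaches 2 and two or more of three replicate z-scores also reach 2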

gene,reagent,mean z-score,"z-score, replicate A","z-score, replicate B","z-score, replicate C",call
ZNF721 (zinc finger protein 721),1,1.03,1.46,0.55,1.07,inactive
SLC25A22,1,0.66,0.73,0.92,0.34,inactive
ACTL6A (actin like 6A),1,-1.44,-1.36,-1.52,-1.43,inactive
ATXN1L (ataxin 1 like),1,-0.05,-0.41,-0.07,0.32,inactive
ZNF625 (zinc finger protein 625),1,-2,-2.14,-1.86,-2,inactive
LUZP4 (leucine zipper protein 4),1,0.96,1.11,0.49,1.27,inactive
SPATA21 (spermatogenesis associated 21),1,-0.23,-0.22,-0.44,-0.02,inactive
SPP1 (secreted phosphoprotein 1),1,0.04,-0.08,0.18,0.02,inactive
TRIM38 (tripartite motif containing 38),1,0.43,0.52,0.44,0.32,inactive
AEN (apoptosis enhancing nuclease),1,-0.96,-1.02,-0.91,-0.95,inactive

Quoted from the entries so far for reference:
gene,reagent,mean z-score,"z-score, replicate A","z-score, replicate B","z-score, replicate C",call
SPP1 (secreted phosphoprotein 1),1,0.04,-0.08,0.18,0.02,inactive
TRIM38 (tripartite motif containing 38),1,0.43,0.52,0.44,0.32,inactive

Additional results:
gene,reagent,mean z-score,"z-score, replicate A","z-score, replicate B","z-score, replicate C",call
RPSA (ribosomal protein SA),1,-2.87,-2.92,-2.9,-2.81,inactive
PMS2P5,1,0.42,0.5,0.47,0.28,inactive
"CDC37L1 (cell division cycle 37 like 1, HSP90 cochaperone)",1,-0.62,-0.88,-0.61,-0.37,inactive
RBP3 (retinol binding protein 3),1,-1.01,-0.93,-1.01,-1.1,inactive
UBE2A (ubiquitin conjugating enzyme E2 A),1,1.11,0.89,1.08,1.36,inactive
MAN1A1 (mannosidase alpha class 1A member 1),1,-0.12,-0.19,-0.08,-0.1,inactive
OR2AE1 (olfactory receptor family 2 subfamily AE member 1),1,-0.53,-0.64,-0.22,-0.73,inactive
HAPLN1 (hyaluronan and proteoglycan link protein 1),1,-0.53,-0.48,-0.61,-0.51,inactive
LSG1 (large 60S subunit nuclear export GTPase 1),1,-0.36,-0.34,-0.73,-0.03,inactive
LSM7,1,-1.1,-0.66,-1.13,-1.52,inactive
PHLPP2 (PH domain and leucine rich repeat protein phosphatase 2),1,-1.11,-0.52,-1.45,-1.36,inactive
DNAH2 (dynein axonemal heavy chain 2),1,-0.68,-0.78,-0.34,-0.91,inactive
DNAH2 (dynein axonemal heavy chain 2),2,0.09,0.59,-0.44,0.12,inactive
